Measurements reported in PubChem BioAssay AID624099 (ICCB-Longwood, 2012)
The whole screen tested about 21,000 reagents; this is a random part of them. 497 of them (2.4%) were called active. 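Higher z means weaker E2 silencing; only reporter increases were scored, and knock-downs that hurt cell survival may mask genuine repressor factors.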 Unmarked entries are inactive. The numbers tell different reagents against one gene apart.

- Screen: 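Human genes that papillomavirus E2 requires to repress the HPV18 LCR promoter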 (primary screen)
- Cells: human C33A cervical carcinoma cells (HPV-negative) stably expressing BPV1 E2 and an HPV18 LCR luciferase reporter
- Reagent: siRNA pool against human genes, 40 nM
- Time to read-out: 72 h
- Measurement: 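Per-well luciferase luminescence, z-scored on each plate against the plate mean and SD with control wells left out, then averaged across three replicate plates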
- Scale: mean z-score and z-score: higher = stronger reporter signal, weaker E2 silencing
- Call rule: 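Hit if mean z-score reaches 2 and two or more of three replicate z-scores also reach 2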

| target gene | reagent no. | mean z-score | z-score, replicate A | z-score, replicate B | z-score, replicate C |
| --- | --- | --- | --- | --- | --- |
| PDCD7 | 1 | -0.06 | -0.28 | -0.15 | 0.25 |
| STK32A | 1 | 0.48 | 0.79 | 0.48 | 0.16 |
| RO60 | 1 | -0.57 | -0.34 | -0.52 | -0.87 |
| LOC401922 (retired record) | 1 | -0.56 | -0.29 | -0.59 | -0.8 |
| CTNNBIP1 | 1 | 0.53 | -0.08 | 0.82 | 0.87 |
| VAX1 | 1 | -1.38 | -1.33 | -1.5 | -1.32 |
| TMEM42 | 1 | -0.49 | -0.86 | -0.63 | 0.01 |
| RNF43 | 1 | -1.01 | -0.92 | -1.1 | -1.02 |
| VAMP7 | 1 | -0.67 | -0.5 | -0.81 | -0.7 |
| IFT70B | 1 | 0.49 | 0.69 | 0.36 | 0.41 |
| TRAK2 | 1 | -0.96 | -1.07 | -1.01 | -0.8 |
| TGFBRAP1 | 1 | 0.36 | 0.39 | 0.51 | 0.19 |
| UQCC4 | 1 | 1.34 | 0.51 | 1.79 | 1.72 |
| PSG8 | 1 | 0.59 | 0.73 | 0.73 | 0.31 |
| PPEF2 | 1 | -0.05 | -0.31 | 0 | 0.18 |
| PRKCH | 1 | -0.2 | -0.33 | -0.06 | -0.22 |
| SPTLC3 | 1 | 0.67 | 0.96 | 0.92 | 0.13 |
| FAM133A | 1 | -0.12 | -0.29 | -0.07 | -0.01 |
| PCLAF | 1 | 0.59 | 0.78 | 0.33 | 0.67 |
| EDN3 | 1 | -1.01 | -1.11 | -1.04 | -0.89 |
| FCGR3B | 1 | -0.19 | -0.09 | -0.19 | -0.28 |
| LINC00938 | 1 | -0.11 | -0.32 | 0.02 | -0.03 |
| LOC150519 (retired record) | 1 | 1.11 | 1.12 | 1.19 | 1.02 |
| LEFTY2 | 1 | -0.34 | -0.64 | -0.28 | -0.08 |
| SULF2 | 1 | -1.02 | -1.57 | -0.93 | -0.56 |
| TGM1 | 1 | -0.48 | -0.54 | -0.36 | -0.53 |
| AFAP1L2 | 1 | 0.22 | 0.33 | 0.34 | -0.01 |
| NCKAP5 | 1 | 0.58 | 0.77 | 0.81 | 0.17 |
| NCKAP5 | 2 | -0.1 | -0.07 | -0.31 | 0.09 |
| PCID2 | 1 | -2.3 | -2.58 | -2.14 | -2.19 |
| RPS10 | 1 | -2.24 | -2.14 | -2.27 | -2.33 |
| CPEB1 | 1 | -0.03 | 0.09 | 0.04 | -0.23 |
| VBP1 | 1 | -0.46 | -0.2 | -0.78 | -0.41 |
| ONECUT3 | 1 | -1.65 | -1.81 | -1.28 | -1.85 |
| NHSL3 | 1 | 1.77 | 1.31 | 1.83 | 2.16 |
| SMTNL2 | 1 | -0.06 | -0.23 | 0.31 | -0.26 |
| LOC343705 (retired record) | 1 | 2.1 | 2 | 2.42 | 1.88 |
| YIPF3 | 1 | -0.68 | -0.94 | -0.56 | -0.54 |
| ZNF138 | 1 | -0.6 | -0.51 | -0.65 | -0.63 |
| PRAMEF1 | 1 | 0.61 | 0.76 | 0.47 | 0.61 |
| MGMT | 1 | -1.2 | -1.18 | -1.54 | -0.88 |
| LINC03040 | 1 | -0.56 | -0.81 | 0.08 | -0.95 |
| RNF31 | 1 | 1.25 | 1.43 | 1.26 | 1.05 |
| NLRP5 | 1 | 0.25 | 0.11 | 0.34 | 0.29 |
| GPAT3 | 1 | 0.79 | 0.78 | 1.06 | 0.53 |
| LOC389988 (retired record) | 1 | -0.92 | -0.81 | -1.24 | -0.71 |
| TM4SF19 | 1 | 0.08 | -0.4 | -0.23 | 0.86 |
| GBP1P1 | 1 | -0.8 | -1.08 | -0.5 | -0.83 |
| GBP1P1 | 2 | -0.14 | -0.03 | -0.38 | -0.01 |
| CYB5R1 | 1 | 0.14 | 0.22 | -0.15 | 0.36 |
| PLBD2 | 1 | 1.12 | 0.97 | 1.13 | 1.27 |
| SLU7 | 1 | 0.07 | -0.11 | 0.05 | 0.26 |
| RLN2 | 1 | 1.01 | 0.99 | 1.12 | 0.92 |
| MIS18A | 1 | 0.73 | 0.98 | 0.73 | 0.47 |
| CPT1B | 1 | -1.14 | -0.96 | -1.07 | -1.38 |
| SLC43A2 | 1 | 0.11 | -0.15 | 0 | 0.47 |
| EDDM3A | 1 | 0.44 | 0.3 | 0.76 | 0.27 |
